Data as given in PubChem BioAssay AID624099 (ICCB-Longwood, 2012)

Test: 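Human genes that papillomavirus E2 requires to repress the HPV18 LCR promoter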 (primary screen)
System: human C33A cervical carcinoma cells (HPV-negative) stably expressing BPV1 E2 and an HPV18 LCR luciferase reporter
Reagents: siRNA pool against human genes, 40 nM
Timing: 72 h
Read-out: 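Per-well luciferase luminescence, z-scored on each plate against the plate mean and SD with control wells left out, then averaged across three replicate plates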
Reading the numbers: mean z-score and z-score: higher = stronger reporter signal, weaker E2 silencing
Rule for the call: 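Hit if mean z-score reaches 2 and two or more of three replicate z-scores also reach 2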
The whole screen tested about 21,000 reagents; below is an unselected part. 497 of them (2.4%) count as active. 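Higher z means weaker E2 silencing; only reporter increases were scored, and knock-downs that hurt cell survival may mask genuine repressor factors.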 Unmarked entries are inactive. No sequences are given here.

gene	PubChem SID	mean z-score	z-score, replicate A	z-score, replicate B	z-score, replicate C
ARFIP1 (GeneID 27236)	SID134323984	-0.43	-0.27	-0.38	-0.66
MUC15 (GeneID 143662)	SID134319647	0.69	0.81	0.6	0.66
SEMA4A (GeneID 64218)	SID134319715	-0.51	-0.71	-0.19	-0.64
GAL3ST4 (GeneID 79690)	SID134322543	1.16	1.22	1.58	0.68
EIF2S3 (GeneID 1968)	SID134321010	-1.33	-1.06	-1.63	-1.29
PHF10 (GeneID 55274)	SID134317578	-0.81	-1.06	-1.04	-0.31
GPR22 (GeneID 2845)	SID134310999	0.44	0.37	0.67	0.27
LINC00668 (GeneID 400643)	SID134328849	0.77	0.39	0.75	1.15
PLEKHG3 (GeneID 26030)	SID134325266	-0.73	-1.01	-0.5	-0.67
LBH (GeneID 81606)	SID134318420	-0.03	-0.23	0	0.14
ZNF518B (GeneID 85460)	SID134325993	-0.2	-0.68	-0.24	0.33
PIF1 (GeneID 80119)	SID134318690	0.26	0.63	-0.06	0.2
MGA (GeneID 23269)	SID134325322	1.85	1.88	2.19	1.49
PLAUR (GeneID 5329)	SID134311768	-1.49	-1.49	-1.51	-1.46
HNRNPKP1 (GeneID 389322)	SID134327545	-0.92	-0.5	-1.16	-1.1
MBLAC1 (GeneID 255374)	SID134326351	0.89	0.82	0.71	1.12
MBLAC1 (GeneID 255374)	SID134329315	0.93	1.4	0.56	0.83
BICD1 (GeneID 636)	SID134323281	0.69	0.8	0.53	0.75
CCR1 (GeneID 1230)	SID134310899	-0.31	-0.19	-0.06	-0.67
C1orf116 (GeneID 79098)	SID134318479	0.93	1.38	0.82	0.58
HTRA3 (GeneID 94031)	SID134311324	-0.32	-0.13	-0.23	-0.59
PCK2 (GeneID 5106)	SID56479157	1.16	0.95	1.43	1.1
ZNF404 (GeneID 342908)	SID134325819	1.17	1.48	1.1	0.93
DDX11L2 (GeneID 84771)	SID134328085	0.74	0.57	0.97	0.68
FAM241B (GeneID 219738)	SID134320289	-0.62	-0.99	-0.64	-0.24
FHIT (GeneID 2272)	SID134310679	-1.11	-1.07	-1.16	-1.1
LOC388006 (retired record) (GeneID 388006)	SID134328504	-1.53	-1.78	-1.47	-1.34
ILF2 (GeneID 3608)	SID134321528	1.36	1.5	1.47	1.12
ZG16B (GeneID 124220)	SID134319984	1.09	1.03	1.08	1.16
PNLIPRP1 (GeneID 5407)	SID134313972	0.39	0.34	0.32	0.49
MALSU1 (GeneID 115416)	SID134319645	0.36	0.34	0.51	0.23
FBXL6 (GeneID 26233)	SID134316697	0.2	0.16	0.24	0.19
NEURL1 (GeneID 9148)	SID134320695	0.46	0.24	0.6	0.53
SLC39A3 (GeneID 29985)	SID134312617	-0.76	-0.9	-0.6	-0.77
CHAT (GeneID 1103)	SID134314132	-1.24	-1.17	-1.12	-1.43
SLC25A1 (GeneID 6576)	SID134312514	0.44	0.48	0.4	0.44
SYAP1 (GeneID 94056)	SID134321130	-0.36	-0.5	-0.14	-0.44
PLA2G4A (GeneID 5321)	SID134314583	0.06	-0.26	0	0.43
GYS1 (GeneID 2997)	SID134321640	-0.39	-0.77	-0.47	0.07

Only “z-score, replicate A”, for 6 of the entries above:
NEURL1 (GeneID 9148) [SID134320695]	0.24
SLC39A3 (GeneID 29985) [SID134312617]	-0.9
CHAT (GeneID 1103) [SID134314132]	-1.17
SLC25A1 (GeneID 6576) [SID134312514]	0.48
SYAP1 (GeneID 94056) [SID134321130]	-0.5
PLA2G4A (GeneID 5321) [SID134314583]	-0.26
